The species named for this data set is Rattus norvegicus. The data set is described as follows: DrugMatrix - Regimen: Daily Repeat. Type of data set: toxicity, organism-based, Sprague-Dawley. Set-up: regimen Daily Repeat, gender Male, age 6-8 weeks. The conditions noted are these: in vivo, po, 72 h, tissue Blood, route oral GAVAGE, time 3 day, vehicle 100 % WATER.

Consider STANNOUS FLUORIDE, for which the MONOCYTE came out at 2.33% (9 mg/kg, dose level Low) and 2.33% (90 mg/kg, dose level High).

The record behind these values is ChEMBL document CHEMBL3885881, “DrugMatrix”.
